Measured values from several laboratories, pooled; numbers as filed in NIAID ChemDB.

Shared fields: tests in culture; organism: Candida albicans

An empty or dashed field is not shown. A number after MIC or MFC names an inhibition level or a share of isolates. Rows are shuffled and stem from different studies. ECn: concentration that inhibits the pathogen or its effect by n%.

| SMILES | read-out | strain or isolate | conditions | method | value |
|---|---|---|---|---|---|
| CC[C@@H]([C@H](C)O)n1ncn(-c2ccc(N3CCN(c4ccc(OC[C@@H]5CO[C@@](Cn6cncn6)(c6ccc(F)cc6F)C5)cc4)CC3)cc2)c1=O | MIC90 | 156 isolates | - | - | 0.125 µg/mL |
| OC(Cc1ccccn1)(Cn1cncn1)c1ccc(F)cc1F | MIC | ATCC 90028 | - | - | 0.125 µg/mL |
| NC(=S)c1cc(N2CCCCC2)ccn1 | MIC | 44859 | - | - | 250 µM |
| Clc1ccc(-c2c[nH]cc2C(c2ccccc2)n2ccnc2)cc1Cl | MIC50 | 40 strains | - | - | 89 µg/mL |
| Cc1ccc2nc(Nc3nc(Nc4ccc(C#N)cc4)nc(Oc4cc(=O)n(C)c5ccccc45)n3)sc2c1 | MIC | MTCC 183 | - | agar | 500 µg/mL |
| C=C1/C=C(\C)[C@H](CC)OC(=O)[C@H](C)C(=O)C(O)(CO)C/C(OC)=C/[C@@H](C)C1 | MIC | MY1005 | - | - | 6.25 µg/mL |
| CC1C=C(C(=O)O)CCC1 | MIC | ATCC10259 | - | - | 500 µg/mL |
| Cc1ccc(C(=O)Nc2ccc3oc(-c4ccccc4)nc3c2)c(C)c1 | MIC | RSKK 628 | - | - | 25 µg/mL |
| CSC1=NC2=C(C(=O)CCC2)C(c2ccc(F)cc2)N1C | MIC | Robin Berkho (AUCC-1720) | - | - | >40 µg/mL |
| NC(=S)CSc1ccnc(C(N)=S)c1 | MIC | 44859 | - | - | 500 µM |
| O=C1/C(=C/c2ccc3c(c2)OCO3)C=C(c2ccc(Oc3ccccc3)cc2)N1Cc1ccccc1 | MIC | - | - | - | >100 µg/mL |
| CCCCCOc1ccc(-c2ccc(-c3ccc(C(=O)N[C@H]4C[C@@H](O)[C@@H](O)NC(=O)[C@@H]5[C@@H](O)[C@@H](C)CN5C(=O)[C@H]([C@H](C)O)NC(=O)[C@H]([C@H](O)[C@@H](O)c5ccc(O)cc5)NC(=O)[C@@H]5C[C@@H](O)CN5C(=O)[C@H]([C@H](C)O)NC4=O)cc3)cc2)cc1 | MIC | 94-93 | - | - | 0.008 µg/mL |
| CCC[C@H](N)C(=O)NC(CNC(=O)/C=C/C(=O)OC)C(=O)O | MIC | - | - | - | 0.2 µg/mL |
| Cc1cc(C)c(S(=O)(=O)Nc2ccc3c(c2)Sc2ccccc2O3)c(C)c1 | MIC | C316 | - | - | 5 µg/mL |
| COC(=O)/C=C/C(=O)NCC(N)C(=O)N[C@@H](CC(C)C)C(=O)O | MIC | - | - | - | 1.56 µg/mL |
| C/C=C(/C(=O)O)c1ccccc1 | MIC | ATCC10259 | - | - | 100 µg/mL |
| O=C(Nc1ccc2c(c1)Sc1ccccc1O2)N(c1ccccc1)c1ccccc1 | MIC | C316 | - | - | 0.4 µg/mL |
| O=C(CSc1nnc(-c2ccc3ncccc3c2)o1)Nc1nc2ccc(Br)cc2s1 | MIC | - | - | agar | 100 µg/mL |
| COC(=O)/C=C/C(=O)NCC(N)C(=O)NCC(=O)O | MIC | - | - | - | 100 µg/mL |
| O=C(CSc1nnc(-c2ccc3ncccc3c2)o1)Nc1nc2ccccc2s1 | MIC | - | - | agar | 100 µg/mL |
| O=C1OC(c2ccc(Oc3ccccc3)cc2)=C/C1=C\c1ccc(Cl)cc1Cl | MIC | - | - | - | 50 µg/mL |
| Clc1ccc(CCC(Cn2ccnc2)Sc2c(Cl)cccc2Cl)cc1 | MIC | ATCC 10231 | - | - | 30 µg/mL |
| COC(=O)/C=C/C(=O)NCC(NC(=O)[C@@H](N)C(C)C)C(=O)O | MIC | - | - | - | 0.78 µg/mL |
| N=C(N)c1ccc2cc(C(=N)N)[nH]c2c1 | MIC | - | - | - | >60 µg/mL |
| O=C(CSc1nnc(-c2ccc3ncccc3c2)o1)Nc1ccccc1 | MIC | - | - | agar | 100 µg/mL |
| CCCCOc1ccc(CC(=O)Nc2ccc3oc(-c4ccccc4)nc3c2)cc1 | MIC | RSKK 628 | - | - | 25 µg/mL |
| N=C(N)c1ccc(-c2nnc(-c3ccc(C(=N)N)cc3)o2)cc1 | MIC | - | - | - | >60 µg/mL |
| C[C@H]1[C@H](O)[C@@H](C)/C=C/C=C/C=C/C=C/C=C/C=C/C=C/[C@H](O[C@@H]2O[C@H](C)[C@@H](O)[C@H](N)[C@@H]2O)C[C@@H]2O[C@](O)(C[C@@H](O)C[C@@H](O)CC[C@H](O)[C@@H](O)C[C@@H](O)CC(=O)O[C@H]1C)C[C@H](O)[C@H]2C(=O)O | MIC | 204276 | - | broth dilution | 0.06 µg/mL |
| OC(Cn1cncn1)(c1ccc(F)cc1F)C(F)(F)c1ccccn1 | MIC | ATCC 90028 | - | - | ≤0.125 µg/mL |
| O=C1CCCC2=C1C(c1ccc(F)cc1)NC(=S)N2 | MIC | Robin Berkho (AUCC-1720) | - | - | >40 µg/mL |
| CCC1CC=C(C(=O)O)CC1 | MIC | ATCC10259 | - | - | >1000 µg/mL |
| COc1cc(/C=C2\C=C(c3ccc(Oc4ccccc4)cc3)OC2=O)ccc1OC(C)=O | MIC | - | - | - | >100 µg/mL |
| CCc1ccc(C(=O)Nc2ccc3oc(-c4ccc(CC)cc4)nc3c2)cc1 | MIC | RSKK 628 | - | - | 50 µg/mL |
| Cc1ccc(NC(=O)CSc2nnc(-c3ccc4ncccc4c3)o2)cc1 | MIC | - | - | agar | 100 µg/mL |
| COc1cc(-c2nnc(Sc3nc(Nc4ccc(C#N)cc4)nc(Oc4cc(=O)n(C)c5ccccc45)n3)o2)cc(OC)c1OC | MIC | MTCC 183 | - | agar | 50 µg/mL |
| CCO[C@@H](n1cncn1)[C@](O)(Cn1cncn1)c1ccc(F)cc1 | MIC | - | - | - | >100 µg/mL |
| CC(C)N=C(N)c1ccc2nc(-c3ccc4c(c3)Cc3cc(-c5nc6ccc(C(N)=NC(C)C)cc6[nH]5)ccc3-4)[nH]c2c1 | MIC | Isolate 3022 fluconazole-resistant | - | - | 1.56 µg/mL |
| O=[N+]([O-])c1ccc(C(F)(F)C(O)(Cn2cncn2)c2ccc(F)cc2F)o1 | MIC | ATCC 90028 | - | - | 0.125 µg/mL |
| C=C1C[C@H](N)[C@H](C(=O)O)C1 | MIC90 | 69 clinical isolates | - | - | 32 µg/mL |
| CO[C@@H](n1cncn1)[C@](O)(Cn1ccnc1)c1ccc(F)cc1F | MIC | - | - | - | >100 µg/mL |
| NC(=S)CSc1cc(C(N)=S)ccn1 | MIC | 44859 | - | - | 1000 µM |
| Nc1ncnc2c1SC1=NC3=C(C(=O)CCC3)C(c3ccc(F)cc3)N12 | MIC | Robin Berkho (AUCC-1720) | - | - | >40 µg/mL |
| Cn1c(=O)cc(Oc2nc(Nc3ccc(C#N)cc3)nc(Oc3cc(=O)n(C)c4ccccc34)n2)c2ccccc21 | MIC | MTCC 183 | - | agar | 250 µg/mL |
| CO[C@@H](n1ccnc1C)[C@](O)(Cn1cncn1)c1ccc(Cl)cc1 | MIC | - | - | - | >100 µg/mL |
| Cn1c(=O)cc(Oc2nc(Nc3ccc(C#N)cc3)nc(Nc3nc4ccccc4s3)n2)c2ccccc21 | MIC | MTCC 183 | - | agar | 500 µg/mL |
| O=C(CSc1nnc(-c2ccc3ncccc3c2)o1)Nc1nc2ccc(F)cc2s1 | MIC | - | - | agar | 25 µg/mL |
| CO[C@@H](n1cccn1)[C@](O)(Cn1ccnc1)c1ccc(F)cc1 | MIC | - | - | - | >100 µg/mL |
| S=C(S)n1nnc2ccccc21 | EC50 | MTCC 183 | 48 h | broth dilution / absorbance | >50 µg/mL |
| O=C(Nc1ccc2oc(-c3ccccc3)nc2c1)c1ccc(Br)cc1 | MIC | RSKK 628 | - | - | 50 µg/mL |
| Cn1c(=O)cc(Oc2nc(Nc3ccc(C#N)cc3)nc(Nc3nc4ccc([N+](=O)[O-])cc4s3)n2)c2ccccc21 | MIC | MTCC 183 | - | agar | 50 µg/mL |
| Cc1nc2c(c(=O)[nH]1)SC1=NC3=C(C(=O)CCC3)C(c3ccc(F)cc3)N12 | MIC | Robin Berkho (AUCC-1720) | - | - | >40 µg/mL |
| CC(=O)Nc1ccc(NC(=O)CSc2nnc(-c3ccc4ncccc4c3)o2)cc1 | MIC | - | - | agar | 100 µg/mL |
| Cc1ccc(S(=O)(=O)Nc2ccc3c(c2)Sc2ccccc2O3)cc1 | MIC | C316 | - | - | 9 µg/mL |
| OC(Cn1cncn1)(Cn1cncn1)c1ccc(F)cc1F | MIC | TIMM1768 | - | - | 100 µg/mL |
| CCO[C@@H](n1cncn1)[C@@](O)(Cn1cncn1)c1ccc(Cl)cc1Cl | MIC | - | - | - | >100 µg/mL |
| Cc1cc(-c2ccccc2)cc(C)[n+]1-c1ccc(S(=O)(=O)Nc2ccc3c(c2)Sc2ccccc2O3)cc1 | MIC | C316 | - | - | 8 µg/mL |
| CCC(N)C(=O)NC(CNC(=O)/C=C/C(=O)OC)C(=O)O | MIC | - | - | - | 0.78 µg/mL |
| O=C1NC(c2ccc(Oc3ccccc3)cc2)=C/C1=C\c1ccc(Cl)cc1 | MIC | - | - | - | 10 µg/mL |
| CCCC[C@H](N)C(=O)NC(CNC(=O)/C=C/C(=O)OC)C(=O)O | MIC | - | - | - | 0.2 µg/mL |
| c1cc(C2=NCCN2)ccc1Oc1ccc(-c2cc3ccc(C4=NCCN4)cc3[nH]2)cc1 | MIC | - | - | - | 3 µg/mL |
| Fc1ccc(C(c2c[nH]cc2-c2ccc(Cl)cc2)n2ccnc2)cc1 | MIC50 | 40 strains | - | - | 8 µg/mL |
| CC[C@@H]1OC(=O)[C@H](C)C(=O)C(O)(CO)C/C(Cl)=C/[C@@H](C)Cc2cccc1c2 | MIC | ATCC 90028 | - | - | >64 µg/mL |
| CO[C@@H](n1cccn1)[C@](O)(Cn1cncn1)c1ccc(Cl)cc1 | MIC | - | - | - | >100 µg/mL |
| CCc1ccc(-c2nc3cc(NC(=O)Cc4ccc(Br)cc4)ccc3o2)cc1 | MIC | RSKK 628 | - | - | 50 µg/mL |
| COc1ccc(NC(=O)CSc2nnc(-c3ccc4ncccc4c3)o2)cc1 | MIC | - | - | agar | 50 µg/mL |
| CCCCCCCCOc1ccc(-c2ccc(C(=O)NC3CC(NCCN)CNC(=O)[C@@H]4[C@@H](O)[C@@H](C)CN4C(=O)[C@@H](CO)NC(=O)[C@H]([C@H](O)Cc4ccccc4)NC(=O)[C@@H]4C[C@@H](O)CN4C(=O)[C@H]([C@@H](C)O)NC3=O)cc2)cc1 | MIC80 | C26 (fluconazole-resistant) | - | - | 0.05 µg/mL |
| CO[C@@H](n1ccnc1)[C@](O)(Cn1cncn1)c1ccc(Cl)cc1 | MIC | - | - | - | >100 µg/mL |
| OC(Cn1cncn1)(c1ccc(F)cc1F)C(F)(F)c1ncccn1 | MIC | ATCC 90028 | - | - | 0.5 µg/mL |
| COC(=O)/C=C/C(=O)NCC(N)C(=O)N[C@@H](C)C(=O)O | MIC | - | - | - | 1.56 µg/mL |

Repeating the final 6 entries:

SMILES,read-out,strain or isolate,conditions,method,value
CCc1ccc(-c2nc3cc(NC(=O)Cc4ccc(Br)cc4)ccc3o2)cc1,MIC,RSKK 628,-,-,50 µg/mL
COc1ccc(NC(=O)CSc2nnc(-c3ccc4ncccc4c3)o2)cc1,MIC,-,-,agar,50 µg/mL
CCCCCCCCOc1ccc(-c2ccc(C(=O)NC3CC(NCCN)CNC(=O)[C@@H]4[C@@H](O)[C@@H](C)CN4C(=O)[C@@H](CO)NC(=O)[C@H]([C@H](O)Cc4ccccc4)NC(=O)[C@@H]4C[C@@H](O)CN4C(=O)[C@H]([C@@H](C)O)NC3=O)cc2)cc1,MIC80,C26 (fluconazole-resistant),-,-,0.05 µg/mL
CO[C@@H](n1ccnc1)[C@](O)(Cn1cncn1)c1ccc(Cl)cc1,MIC,-,-,-,>100 µg/mL
OC(Cn1cncn1)(c1ccc(F)cc1F)C(F)(F)c1ncccn1,MIC,ATCC 90028,-,-,0.5 µg/mL
COC(=O)/C=C/C(=O)NCC(N)C(=O)N[C@@H](C)C(=O)O,MIC,-,-,-,1.56 µg/mL